Source: patent publication US7026469B2, “Compositions and methods of double-targeting virus infections and cancer cells” (Wake Forest University School of Medicine, priority 2000, dated 2006)

Tested on: HIV-1
Assay: HIV-1 syncytial plaque assay in CEM-SS cells
Type: cell-based
Conditions: DS = ratio of TC50 for cytotoxicity to EC50 for anti-HIV activity
Description: The inhibitory effects of PC lipids, non-PC lipid-AZT conjugates, and double-targeting PC lipid-AZT conjugate compounds of the invention on replication of HIV-1 virus in cells was examined using the plaque assay procedure described in Kucera et al. (1990, AIDS Research and Human Retroviruses, 6:491). CEM-SS cells were seeded at 50,000 cells per milliliter in RPMI growth medium as a monolayer in 96-well dishes, inoculated with 50 to 100 plaque forming units of HIV-1 and overlaid with serial dilutions of either PC lipid, non-PC lipid-AZT conjugate, or PC-lipid-AZT conjugate in RPMI-1640 growth medium supplemented with 10% fetal bovine serum. The structures of the tested compounds are described in Table 1. AZT and PC lipids were used as positive controls. […] The cytotoxicity of PC lipids, non-PC lipid-AZT conjugates and double targeting PC lipid-AZT conjugates was assessed using the procedure described in Kucera et al. (1990, AIDS Res. And Human Retrovir., 6:496, and 1998, Antiviral Chemistry and Chemotherapy, 9:160). [drawing 16]
In the plaque assay, HIV-1 syncytial plaques are seen as large, multicellular foci (10 to 25 nuclei/syncytium) that appear either brown and granular or clear. Because the number of HIV-1 syncytial plaques was correlated with reverse transcriptase (RT) and p24 core antigen activity in the HIV-1 infected cell overlay fluids, the syncytial plaque assay could be used to quantify the amount of infectious virus. Reverse transcriptase activity was assayed according to the procedure described by Poeisz et al. (1980, Proc. Natl. Acad. Sci. U.S.A. 77:7415). The activity of p24 core antigen induced by HIV-1 infection of CEM-SS cells was measured spectrophotometrically using the commercial Coulter enzyme immunoassay (EIA).

| SMILES | Differential Selectivity |
| --- | --- |
| CCCCCCCCCCCCSCC(COP(=O)([O-])OCC[N+](C)(C)C)OCCCCCCCCCCOCc1ccccc1 (centres unmarked) [INK-21] | 38 |
| CCCCCCCCCCCCSCC(COP(=O)([O-])OCC[N+](C)(C)C)OCCCCCCCCCCCCOC(=O)CC(=O)OC[C@H]1O[C@@H](n2cc(C)c(=O)[nH]c2=O)C[C@@H]1N=[N+]=[N-] (some centres unmarked) [INK-26] | 580 |
| CCCCCCCCCCCCSCC(COP(=O)([O-])OCC[N+](C)(C)C)OCCCCCCCCOCc1ccccc1 (centres unmarked) [INK-17, 3-dodecylthio-2-(8′-benzyloxyoctyloxy)propyl phosphocholine] | 327 |
| CCCCCCCCCCCCSCC(COP(=O)([O-])OCC[N+](C)(C)C)OCCCCCCCCCCOC(=O)CC(=O)OC[C@H]1O[C@@H](n2cc(C)c(=O)[nH]c2=O)C[C@@H]1N=[N+]=[N-] (some centres unmarked) [INK-25] | 682 |
| CCCCCCCCCCCCSCC(COC(=O)CC(=O)OC[C@H]1O[C@@H](n2cc(C)c(=O)[nH]c2=O)C[C@@H]1N=[N+]=[N-])OC (some centres unmarked) [INK-19] | 1050 |
| CCCCCCCCCCCCSCC(COP(=O)([O-])OCC[N+](C)(C)C)OCCCCCCCCO (centres unmarked) [INK-18, 3-dodeceylthio-2-(8′-hydroxyoctyloxy)propyl phosphophocholine] | 26 |
| CCCCCCCCCCCCSCC(COP(=O)([O-])OCC[N+](C)(C)C)OCCCCCCCCCCCCOCc1ccccc1 (centres unmarked) [INK-23] | >68 |
| CCCCCCCCCCCCSCC(COP(=O)([O-])OCC[N+](C)(C)C)OCCCCCCCCCCCCO (centres unmarked) [INK-24] | 207 |
| CCCCCCCCCCCCSCC(COP(=O)([O-])OCC[N+](C)(C)C)OCCCCCCCCC(=O)OCC(=O)OC[C@H]1O[C@@H](n2cc(C)c(=O)[nH]c2=O)C[C@@H]1N=[N+]=[N-] (some centres unmarked) [INK-20] | 7,666 |
| CCCCCCCCCCCCSCC(COP(=O)([O-])OCC[N+](C)(C)C)OCCCCCCCCCCO (centres unmarked) [INK-22] | >232 |
| CCCCCCCCCCCCSCC(COP(=O)(O)OCC1OC(n2cc(C)c(=O)[nH]c2=O)CC1N=[N+]=[N-])OCCCCCCCCCC (centres unmarked) [BM21-1290] | 1925 |
